Compound potency records, mixed from different reports. Data source: NIAID ChemDB in PubChem.

All rows: growth or infection tests; agent: Streptococcus pneumoniae; endpoint: MIC

Conditions beyond the fields shown may differ between rows.

structure,strain,value
C[C@H]1NCc2cc(-c3ccc4c(=O)c(C(=O)O)cn(C5CC5)c4c3OC(F)F)ccc21,R6-C11,0.06 µg/mL
CC[C@H]1OC(=O)[C@H](C)C(=O)[C@H](C)[C@@H](O[C@@H]2O[C@H](C)C[C@H](N(C)C)[C@H]2O)[C@@]2(C)C[C@@H](C)C(=NC(C)=O)[C@H](C)[C@@H](OC/C(=N\Oc3ccc(-c4nnc(N)s4)cc3)CO2)[C@]1(C)O,7701 (erythromycin-resistant-MEF),<0.06 µg/mL
O=C(Nc1ccc(C(F)(F)F)cc1)Nc1ccc(C(F)(F)F)cc1,STP51 (penicillin-resistant),38 µM
CC(=O)NC[C@H]1CN(c2ccc(-c3nsc(C#N)n3)c(F)c2)C(=O)O1,UC9912,1 µg/mL
CC[C@H]1OC(=O)[C@H](C)C(=O)[C@H](C)[C@@H](O[C@@H]2O[C@H](C)C[C@H](N(C)C)[C@H]2O)[C@@]2(C)C[C@@H](C)C(=NC(C)=O)[C@H](C)[C@@H](OC/C(=N\OCc3ccc(-c4ncccn4)s3)CO2)[C@]1(C)O,49619 (erythromycin A-susceptible),<0.06 µg/mL
O=C(CC(=O)Nc1ccc(F)cc1)Nc1ccc(F)cc1,STP6301,>300 µM
CC(=O)NC[C@H]1CN(c2ccc(-c3ccn(CCC#N)n3)c(F)c2)C(=O)O1,UC9912,2 µg/mL
CC[C@H]1OC(=O)[C@H](C)C(=O)[C@H](C)[C@@H](O[C@@H]2O[C@H](C)C[C@H](N(C)C)[C@H]2O)[C@@]2(C)C[C@@H](C)C(=NC(C)=O)[C@H](C)C(OC/C(=C\c3ccccc3)CO2)[C@]1(C)O,700906 (erythromycin-resistant-ERM),32 µg/mL
CC[C@H]1OC(=O)[C@H](C)C(=O)[C@H](C)[C@@H](O[C@@H]2O[C@H](C)C[C@H](N(C)C)[C@H]2O)[C@@]2(C)C[C@@H](C)C(=NC(C)=O)[C@H](C)[C@@H](OC/C(=N\Oc3ccc(-n4cccn4)nc3)CO2)[C@]1(C)O,49619 (erythromycin-susceptible),<0.06 µg/mL
CC(=O)NC[C@H]1CN(c2ccc(-c3cnn(Cc4ccccc4)c3)c(F)c2)C(=O)O1,UC9912,2 µg/mL
CC[C@H]1OC(=O)[C@H](C)C(=O)[C@H](C)[C@@H](O[C@@H]2O[C@H](C)C[C@H](N(C)C)[C@H]2O)[C@@]2(C)C[C@@H](C)C(=NC(C)=O)[C@H](C)C(OC/C(=C\C#Cc3ccccc3)CO2)[C@]1(C)O,49619 (erythromycin-susceptible),<0.06 µg/mL
CC[C@H]1OC(=O)[C@H](C)C(=O)[C@H](C)[C@@H](O[C@@H]2O[C@H](C)C[C@H](N(C)C)[C@H]2O)[C@@]2(C)C[C@@H](C)C(=NC(C)=O)[C@H](C)[C@@H](OC/C(=N\OCc3ccc4nc(N)sc4c3)CO2)[C@]1(C)O,7701 (erythromycin-resistant-MEF),<0.06 µg/mL
COc1c(N2CCNC(C)C2)c(F)cc2c(=O)c(C(=O)O)cn(C3CC3)c12,R6-C11,0.5 µg/mL
O=C(NNC(=O)Nc1cc(C(F)(F)F)cc(C(F)(F)F)c1)Nc1ccccc1,STP6301,>200 µM
CC[C@H]1OC(=O)[C@@](C)(F)C(=O)[C@H](C)[C@@H](O[C@@H]2O[C@H](C)C[C@H](N(C)C)[C@H]2O)[C@@]2(C)C[C@@H](C)C(=NC(C)=O)[C@H](C)[C@@H](OC/C(=N\OCc3ccc(-c4csnn4)nc3)CO2)[C@]1(C)O,700906 (erythromycin A-resistant),<0.06 µg/mL
CC[C@H]1OC(=O)[C@H](C)C(=O)[C@H](C)[C@@H](O[C@@H]2O[C@H](C)C[C@H](N(C)C)[C@H]2O)[C@@]2(C)C[C@@H](C)C(=NC(C)=O)[C@H](C)C(OC/C=C/CO2)[C@]1(C)O,7701 (erythromycin-resistant-MEF),0.5 µg/mL
CC[C@H]1OC(=O)[C@H](C)C(=O)[C@H](C)[C@@H](O[C@@H]2O[C@H](C)C[C@H](N(C)C)[C@H]2O)[C@@]2(C)C[C@@H](C)C(=NC(C)=O)[C@H](C)[C@@H](OC/C(=N\OCc3ccc(C(N)=O)cc3)CO2)[C@]1(C)O,7701 (erythromycin-resistant-MEF),0.25 µg/mL
CC(=O)NC[C@H]1CN(c2ccc(-c3cc(CO)on3)c(F)c2)C(=O)O1,UC9912,≤0.5 µg/mL
O=C(CC(=O)Nc1cc(C(F)(F)F)cc(C(F)(F)F)c1)Nc1cccc(C2=NCCN2)c1,STP6301,38 µM
CC(=O)NC[C@H]1CN(c2ccc(-c3ccn(CC#N)n3)c(F)c2)C(=O)O1,UC9912,≤0.5 µg/mL
C=C1COC2[C@@H](C)C(=NC(C)=O)[C@H](C)C[C@@](C)(OC1)[C@H](O[C@@H]1O[C@H](C)C[C@H](N(C)C)[C@H]1O)[C@@H](C)C(=O)[C@@H](C)C(=O)O[C@H](CC)[C@@]2(C)O,700906 (erythromycin-resistant-ERM),>64 µg/mL
CC[C@H]1OC(=O)[C@H](C)C(=O)[C@H](C)[C@@H](O[C@@H]2O[C@H](C)C[C@H](N(C)C)[C@H]2O)[C@@]2(C)C[C@@H](C)C(=NC(C)=O)[C@H](C)[C@@H](OC/C(=N\OCCc3ccccc3)CO2)[C@]1(C)O,700906 (erythromycin-resistant-ERM),4 µg/mL
CC[C@H]1OC(=O)[C@H](C)C(=O)[C@H](C)[C@@H](O[C@@H]2O[C@H](C)C[C@H](N(C)C)[C@H]2O)[C@@]2(C)C[C@@H](C)C(=NC(C)=O)[C@H](C)C(OC/C(=C\C=C\c3ccccc3)CO2)[C@]1(C)O,700906 (erythromycin-resistant-ERM),1 µg/mL
O=C(O)c1cn(C2CC2)c2cc(N3CCNCC3)ccc2c1=O,R6,32 µg/mL
O=C(CC(=O)Nc1cccc(C(F)(F)F)c1)Nc1cccc(C(F)(F)F)c1,STP6301,>300 µM
CC[C@H]1OC(=O)[C@H](C)C(=O)[C@H](C)[C@@H](O[C@@H]2O[C@H](C)C[C@H](N(C)C)[C@H]2O)[C@](C)(OC)C[C@@H](C)C(=O)[C@H](C)[C@H]2N(CCCCn3cnc(-c4cccnc4)c3)C(=O)O[C@]12C,49619 (erythromycin A-susceptible),0.06 µg/mL
CC[C@H]1OC(=O)[C@H](C)C(=O)[C@H](C)[C@@H](O[C@@H]2O[C@H](C)C[C@H](N(C)C)[C@H]2O)[C@@]2(C)C[C@@H](C)C(=NC(C)=O)[C@H](C)C(OC/C(=C\C=C\c3ccc([N+](=O)[O-])cc3)CO2)[C@]1(C)O,49619 (erythromycin-susceptible),<0.06 µg/mL
CC[C@H]1OC(=O)[C@@](C)(F)C(=O)[C@H](C)[C@@H](O[C@@H]2O[C@H](C)C[C@H](N(C)C)[C@H]2O)[C@@]2(C)C[C@@H](C)C(=NC(C)=O)[C@H](C)[C@@H](OC/C(=N/OCc3ccc(-c4cccc(N)n4)s3)CO2)[C@]1(C)O,49619 (erythromycin A-susceptible),<0.06 µg/mL
COc1c(N2C[C@@H]3CCCN[C@@H]3C2)ccc2c(=O)c(C(=O)O)cn(C3CC3)c12,R6,0.5 µg/mL

3 of the rows above, restated:

structure	strain	value
CC[C@H]1OC(=O)[C@@](C)(F)C(=O)[C@H](C)[C@@H](O[C@@H]2O[C@H](C)C[C@H](N(C)C)[C@H]2O)[C@@]2(C)C[C@@H](C)C(=NC(C)=O)[C@H](C)[C@@H](OC/C(=N\OCc3ccc(-c4csnn4)nc3)CO2)[C@]1(C)O	700906 (erythromycin A-resistant)	<0.06 µg/mL
C[C@H]1NCc2cc(-c3ccc4c(=O)c(C(=O)O)cn(C5CC5)c4c3OC(F)F)ccc21	R6-C11	0.06 µg/mL
O=C(O)c1cn(C2CC2)c2cc(N3CCNCC3)ccc2c1=O	R6	32 µg/mL